Experimental data as given in ChEMBL document CHEMBL4118102 (J Med Chem, 2018).

What follows are compounds tested on Influenza A virus (assay: Antiviral activity against Influenza A virus (A/NWS/G70C(H1N9)) infected in MDCK cells assessed as reduction in plaque formation measured after 3 days post infection by neutral red staining-based assay).

**Q.** Which EC50 does the source give for `CC(=O)N[C@@H]1[C@@H](O)[C@@H](F)[C@](F)(C(=O)O)O[C@H]1[C@H](O)[C@@H](C)O` here?
**A.** Its EC50 is 100 µM.

**Q.** With `CC(=O)N[C@@H]1[C@@H](O)[C@@H](F)[C@](F)(C(=O)O)O[C@H]1C[C@H](O)CO` as the compound, how does the EC50 read?
**A.** The EC50 was 10 µM.

**Q.** `CC(=O)N[C@@H]1[C@@H](O)[C@@H](F)[C@](F)(C(=O)O)O[C@H]1[C@H](O)CCO` was tested. Which EC50 did it give?
**A.** The EC50 was 100 µM.

**Q.** Which EC50 does the source give for `CC(=O)N[C@@H]1[C@@H](O)[C@@H](F)[C@](F)(C(=O)O)O[C@H]1[C@H](O)[C@H](O)CO` here?
**A.** The EC50 was 1 to 10 µM.

**Q.** Which EC50 does the source give for `CC(=O)N[C@@H]1C[C@@H](F)[C@](F)(C(=O)O)O[C@H]1[C@H](O)[C@H](O)CO` here?
**A.** Its EC50 is 1 to 10 µM.
